## Replication capacity of HIV-1 mutants, non-coding ends

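Random point mutant libraries of HIV-1 NL4-3, one for each of seven fragments, were passaged in CEM T lymphocytes. The RC index is the frequency of a change after passage round 2 divided by its frequency in the plasmid library.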

Positions lie in the non-coding 5' end or the 3' LTR of the genome. Changes in the 5' U3 are not copied into viral RNA and those in the 3' R are mostly lost on reverse transcription, so a low index there need not show harm (not discussed in the paper).

Values are the RC index; higher means better tolerated. The authors read about 0.1 or less as lethal, 0.1-0.2 as attenuated and 0.2 or more as tolerated.
Input reads are the counts in the plasmid library.
The authors read an index above 1 as above wild type (1.9% of all changes in the genome).
Clones carried about five changes per kilobase, which can drag down the index of neutral changes.
Nucleotide positions follow pNL4-3.

| base | region | input reads | RC index |
|---|---|---|---|
| T405G | 5' U3 | 46 | 0.533 |
| G406A | 5' U3 | 296 | 0.290 |
| G407A | 5' U3 | 459 | 0.321 |
| G409A | 5' U3 | 490 | 0.200 |
| G409T | 5' U3 | 135 | 0.273 |
| A410G | 5' U3 | 241 | 0.153 |
| A410T | 5' U3 | 304 | 0.282 |
| C416A | 5' U3 | 168 | 0.292 |
| G418T | 5' U3 | 98 | 0.492 |
| G421A | 5' U3 | 243 | 0.993 |
| C422A | 5' U3 | 119 | 0.406 |
| C422T | 5' U3 | 240 | 0.804 |
| C425T | 5' U3 | 236 | 0.409 |
| A431T | 5' U3 | 225 | 0.429 |
| C446T | 5' U3 | 231 | 0.836 |
| T448A | 5' U3 | 184 | 0.787 |
| T448C | 5' U3 | 139 | 0.347 |
| A451G | 5' U3 | 70 | 0.689 |
| G455A | 5' R | 148 | 0.652 |
| G455T | 5' R | 126 | 0.383 |
| C458T | 5' R | 111 | 0.435 |
| T459A | 5' R | 86 | 0.561 |
| C460A | 5' R | 124 | 0.389 |
| T461A | 5' R | 131 | 0.737 |
| T463A | 5' R | 216 | 0.223 |
| T463C | 5' R | 179 | 0.809 |
| G464C | 5' R | 51 | 0.946 |
| A468G | 5' R | 113 | 0.854 |
| G469A | 5' R | 113 | 0.854 |
| C471A | 5' R | 53 | 0.911 |
| C471T | 5' R | 217 | 0.445 |
| C472A | 5' R | 139 | 0.694 |
| G474T | 5' R | 121 | 0.399 |
| G481T | 5' R | 92 | 0.525 |
| C483T | 5' R | 129 | 0.374 |
| G487A | 5' R | 108 | 0.447 |
| A488T | 5' R | 133 | 0.726 |
| C492A | 5' R | 85 | 0.568 |
| G496T | 5' R | 108 | 0.894 |
| G497T | 5' R | 62 | 0.778 |
| A500T | 5' R | 141 | 0.685 |
| C502T | 5' R | 169 | 0.286 |
| G507T | 5' R | 69 | 0.699 |
| A509G | 5' R | 110 | 0.877 |
| C512A | 5' R | 84 | 0.575 |
| A513T | 5' R | 191 | 0.505 |
| C514G | 5' R | 55 | 0.877 |
| T518C | 5' R | 147 | 0.657 |
| A521T | 5' R | 180 | 0.536 |
| T529C | 5' R | 65 | 0.742 |
| G533A | 5' R | 210 | 0.919 |
| C534T | 5' R | 235 | 0.205 |
| G537A | 5' R | 188 | 0.770 |
| C539A | 5' R | 129 | 0.374 |
| G542T | 5' R | 98 | 0.985 |
| C549T | 5' R | 5867 | 0.913 |
| A550C | 5' R | 5762 | 0.930 |
| A551G | 5' R | 143 | 0.337 |
| A552G | 5' U5/leader | 88 | 0.548 |
| T559A | 5' U5/leader | 187 | 0.516 |
| T559C | 5' U5/leader | 167 | 0.867 |
| C565T | 5' U5/leader | 199 | 0.728 |
| G566A | 5' U5/leader | 205 | 0.706 |
| T569A | 5' U5/leader | 49 | 0.290 |
| C598A | 5' U5/leader | 75 | 0.120 |
| G662A | 5' U5/leader | 39 | 0.211 |
| G729A | 5' U5/leader | 209 | 0.0832 |
| G731A | 5' U5/leader | 335 | 0.0923 |
| G733A | 5' U5/leader | 352 | 0.0549 |
| G734A | 5' U5/leader | 335 | 0.104 |
| C735A | 5' U5/leader | 94 | 0.144 |
| C738A | 5' U5/leader | 81 | 0.119 |
| C741T | 5' U5/leader | 407 | 0.128 |
| T742C | 5' U5/leader | 220 | 0.0615 |
| G743A | 5' U5/leader | 439 | 0.123 |
| G743T | 5' U5/leader | 312 | 0.0496 |
| G744T | 5' U5/leader | 82 | 0.0707 |
| T745A | 5' U5/leader | 477 | 0.0284 |
| G746A | 5' U5/leader | 251 | 0.200 |
| A747T | 5' U5/leader | 437 | 0.0221 |
| G748A | 5' U5/leader | 714 | 0.0271 |
| G748C | 5' U5/leader | 188 | 0.0822 |
| A750T | 5' U5/leader | 95 | 0.0610 |
| C751T | 5' U5/leader | 647 | 0.194 |
| C754A | 5' U5/leader | 270 | 0.344 |
| C754T | 5' U5/leader | 146 | 0.0530 |
| A755G | 5' U5/leader | 489 | 0.190 |
| A758T | 5' U5/leader | 145 | 0.0533 |
| A759G | 5' U5/leader | 172 | 0.0899 |
| T760C | 5' U5/leader | 164 | 0.0825 |
| T761A | 5' U5/leader | 296 | 0.104 |
| T762C | 5' U5/leader | 366 | 0.0370 |
| T763A | 5' U5/leader | 171 | 0.237 |
| G764A | 5' U5/leader | 252 | 0.583 |
| C766G | 5' U5/leader | 169 | 0.0343 |
| C766T | 5' U5/leader | 417 | 0.0324 |
| A768G | 5' U5/leader | 210 | 0.0460 |
| G772T | 5' U5/leader | 55 | 0.0351 |
| A773G | 5' U5/leader | 255 | 0.189 |
| A773T | 5' U5/leader | 180 | 0.0215 |
| G774A | 5' U5/leader | 280 | 0.559 |
| G775T | 5' U5/leader | 120 | 0.113 |
| A778T | 5' U5/leader | 467 | 0.0207 |
| A780G | 5' U5/leader | 333 | 0.215 |
| A780T | 5' U5/leader | 219 | 0.0265 |
| A781G | 5' U5/leader | 215 | 0.0989 |
| A781T | 5' U5/leader | 438 | 0.0353 |
| G783A | 5' U5/leader | 194 | 0.329 |
| A784T | 5' U5/leader | 295 | 0.0328 |
| G785A | 5' U5/leader | 239 | 0.129 |
| G785T | 5' U5/leader | 194 | 0.139 |
| A788G | 5' U5/leader | 297 | 0.0716 |
| A788T | 5' U5/leader | 503 | 0.0346 |
| C9408T | 3' U3 | 327 | 0.893 |
| C9411T | 3' U3 | 324 | 0.891 |
| G9412T | 3' U3 | 152 | 0.511 |
| A9413T | 3' U3 | 328 | 1.51 |
| G9414A | 3' U3 | 389 | 0.790 |
| T9416A | 3' U3 | 384 | 1.46 |
| T9416G | 3' U3 | 60 | 0.225 |
| G9418C | 3' U3 | 117 | 0.621 |
| T9420A | 3' U3 | 187 | 0.894 |
| A9423G | 3' U3 | 435 | 0.827 |
| A9423T | 3' U3 | 483 | 0.825 |
| A9424C | 3' U3 | 131 | 0.825 |

Excerpt, the final 14 entries:

For A788G (region 5' U5/leader, input reads 297) the result was 0.0716.
For A788T (region 5' U5/leader, input reads 503) the result was 0.0346.
For C9408T (region 3' U3, input reads 327) the result was 0.893.
For C9411T (region 3' U3, input reads 324) the result was 0.891.
For G9412T (region 3' U3, input reads 152) the result was 0.511.
For A9413T (region 3' U3, input reads 328) the result was 1.51.
For G9414A (region 3' U3, input reads 389) the result was 0.790.
For T9416A (region 3' U3, input reads 384) the result was 1.46.
For T9416G (region 3' U3, input reads 60) the result was 0.225.
For G9418C (region 3' U3, input reads 117) the result was 0.621.
For T9420A (region 3' U3, input reads 187) the result was 0.894.
For A9423G (region 3' U3, input reads 435) the result was 0.827.
For A9423T (region 3' U3, input reads 483) the result was 0.825.
For A9424C (region 3' U3, input reads 131) the result was 0.825.

Values reported by Al-Mawsawi et al. 2014 (doi:10.1186/s12977-014-0124-6).